Anti-infective test results gathered from many reports (values: NIAID ChemDB through PubChem).

Common to all: whole-cell or culture tests; agent: Candida albicans; read-out: MIC

a–b is a range or a potency band. Blank or dashed fields: not listed here. Lines come from different laboratories, so protocols vary.

compound,conditions,strain or isolate,read by,value
Nn1c(SCC(O)(Cn2cncn2)c2ccc(F)cc2F)nnc1-c1ccc(F)cc1,,IRFC 37,broth dilution,>64 µg/mL
CCCCC/C=C/CCC(=O)[C@H]1O[C@H]1C(=O)N(CC)CC,,F2 sensitive,,6.25 µg/mL
CCCC(O)C/C=C\C=C\C(=O)OC[C@H]1O[C@@H](O[C@@H]2[C@H](OC(=O)/C=C/C=C/CC(O)/C(C)=C/C=C/CCC(C)CC)[C@@H](O)[C@]3(OCc4cc(O)cc(O)c43)O[C@@H]2CO)[C@H](O)[C@@H](O)[C@H]1O,,MY1208,,2 µg/mL
c1ccc(-c2ccc(COC(Cn3ccnc3)c3ccccc3)cc2)cc1,,3M,,128 µg/mL
Nn1c(SCC(O)(Cn2cncn2)c2ccc(F)cc2F)nnc1-c1cccc(Br)c1,,ATCC 18804,broth dilution,>64 µg/mL
c1ccc(C(Cn2ccnc2)OCc2cccc3ccccc23)cc1,,Y0109,,128 µg/mL
C[C@H]1[C@H](O)[C@@H](C)/C=C/C=C/C=C/C=C/C=C/C=C/C=C/[C@H](O[C@@H]2O[C@H](C)[C@@H](O)[C@H](N)[C@@H]2O)C[C@@H]2O[C@](O)(C[C@@H](O)C[C@@H](O)CC[C@H](O)[C@@H](O)C[C@@H](O)CC(=O)O[C@H]1C)C[C@H](O)[C@H]2C(=O)O,,ATCC64546,,0.5 µg/mL
COc1ccc(/C=C2\CCc3ccccc3C2=O)cc1,,,,50 µg/mL
CC[C@@H]([C@H](C)O)n1ncn(-c2ccc(N3CCN(c4ccc(OC[C@@H]5CO[C@@](Cn6cncn6)(c6ccc(F)cc6F)C5)cc4)CC3)cc2)c1=O,pH 7,10 isolates,broth dilution,0.03 µg/mL
COc1ccc(-c2nnc(SCC(O)(Cn3cncn3)c3ccc(Cl)cc3Cl)n2N)cc1,,IRFC 192,broth dilution,>64 µg/mL
Clc1ccc(C(Cn2ccnc2)OCc2cccc3ccccc23)cc1,,5M,,128 µg/mL
CO[C@H]1C[C@@H]2CC[C@@H](C)[C@@](O)(O2)C(=O)C(=O)N2CCCC[C@H]2C(=O)O[C@H]([C@H](C)C[C@@H]2CC[C@@H](C(=O)ON(C)OC)[C@H](OC)C2)CC(=O)[C@H](C)/C=C(\C)[C@@H](O)[C@@H](OC)C(=O)[C@H](C)C[C@H](C)CCCC/C=C/1C,,38247,,50 µg/mL
CCc1ccc2c(C)c(C(=O)c3ccc(Cl)cc3)oc2c1,,Clinical isolate,,50 µg/mL
COC(=O)/C=C/n1cc(-c2ccc(Cl)cc2)c(C(c2ccccc2)n2ccnc2)c1,,,,0.34 µg/mL
Nn1c(SCC(O)(Cn2cncn2)c2ccc(Cl)cc2Cl)nnc1-c1cccc(Br)c1,,PTCC 6027,broth dilution,>64 µg/mL
Cc1c(C(=O)c2ccc(Cl)cc2)oc2ccccc12,,NRRL Y-27077,,25 µg/mL
C[C@@H](c1nc(-c2ccc(C#N)cc2)cs1)[C@](O)(Cn1cncn1)c1ccc(F)cc1F,,60 strains,,≤0.03 µg/mL
Nn1c(SCC(O)(Cn2cncn2)c2ccc(Cl)cc2Cl)nnc1-c1ccccc1,,IRFC 36,broth dilution,4 µg/mL
CCCCCCCCOc1ccc(N2CCN(c3ccc(C(=O)N[C@H]4CCCNC(=O)C5C[C@H](N)CN5C(=O)C(C(C)O)NC(=O)C(Cc5ccc(N)cc5)NC(=O)C5CCCN5C(=O)C(C(C)O)NC4=O)cc3)CC2)cc1,,ATCC 62376,,0.2 µg/mL
CCCCCCCCCCCCCCCCCC(=O)NC1CC(O)C(O)NC(=O)C2C(O)C(C)CN2C(=O)C(C(C)O)NC(=O)C(C(O)C(O)c2ccc(O)cc2)NC(=O)C2CC(O)CN2C(=O)C(C(C)O)NC1=O,,MY1055,,0.25 µg/mL
Fc1ccc(C(c2ccn(-c3ccc(Cl)cc3)c2)n2ccnc2)cc1,,,,2.8 µg/mL
CC(C)(C)c1ccc(COC(Cn2ccnc2)c2ccccc2)cc1,,5M,,128 µg/mL
C[C@@H](n1cnc2cc(C#N)ccc2c1=O)[C@](O)(Cn1cncn1)c1ccc(F)cc1F,,60 strains,,0.07 µg/mL
CO[C@@H]1C[C@H](C[C@@H](C)[C@@H]2CC(=O)[C@H](C)/C=C(\C)[C@@H](O)[C@@H](OC)C(=O)[C@H](C)C[C@H](C)/C=C/C=C/C=C(\C)[C@@H](N(OC)C(=O)N(C)C)C[C@@H]3CC[C@@H](C)[C@@](O)(O3)C(=O)C(=O)N3CCCC[C@H]3C(=O)O2)CC[C@H]1C(=O)ON(C)O,,10231,,50 µg/mL
O=C(Nc1nc2ccc(NC(=O)[C@@H]3CCC[C@H](NCc4ccc5ccccc5c4)C3)cc2s1)C1CCCC1,,IFM 40009,,0.78 µM
C[C@@H](n1cnc2cc(F)c(F)cc2c1=O)[C@](O)(Cn1cncn1)c1ccc(F)cc1F,,76 strains,,0.15 µg/mL
CCCCCOc1ccc(-c2ccc(-c3ccc(C(=O)N[C@H]4CCCNC(=O)[C@@H]5C[C@H](N)CN5C(=O)[C@H](CCCN)NC(=O)C(CCc5ccc(O)cc5)NC(=O)[C@@H]5C[C@@H](O)CN5C(=O)[C@H]([C@@H](C)O)NC4=O)cc3)cc2)cc1,,ATCC 10231,,0.39 µg/mL
C=CCn1cc(-c2ccc(Cl)cc2)c(C(c2ccccc2)n2ccnc2)c1,,,,0.019 µg/mL
O=c1c(OC2CCCC2)c(N2CCN(S(=O)(=O)NCc3ccccc3)CC2)cnn1-c1cccc(Cl)c1,,C697,broth dilution,0.125 µg/mL
Cc1nc2c(=O)n(-c3ccc(S(=O)(=O)NC(=S)Nc4ccccc4)cc3)nc(C)c2s1,,ATCC 10231,broth dilution,25 µg/mL
CCOC(=O)C(C#N)C(c1cc2cccc(CC)c2n2nnnc12)P(=O)(OCC)OCC,,MTCC 277,agar diffusion,10 µg/mL
C(=C\c1ccccc1)/COC(Cn1ccnc1)c1ccccc1,,CA2,,128 µg/mL
CO[C@H]1C[C@@H]2CC[C@@H](C)[C@@](O)(O2)C(=O)C(=O)N2CCCC[C@H]2C(=O)O[C@H]([C@H](C)C[C@@H]2CC[C@H](c3nn[nH]n3)[C@H](OC)C2)CC(=O)[C@H](C)/C=C(\C)[C@@H](O)[C@@H](OC)C(=O)[C@H](C)C[C@H](C)CCCC/C=C/1C,,62376,,>100 µg/mL
Cc1ccc(C(Cn2ccnc2)OCc2ccc(-c3ccccc3)cc2)cc1,,CA7,,128 µg/mL
Fc1ccc(CCCCn2c3c(c4cc(F)ccc42)CNCC3)cc1,,ATCC 62376,,0.78–3.12 µg/mL
Clc1ccc(/C(Cn2ccnc2)=N\OCc2ccccc2)cc1,,CA6,,>16 µg/mL
CCOC(=O)C(C#N)C(c1cc2ccc(OC)cc2n2nnnc12)P(=O)(OCC)OCC,,MTCC 277,agar diffusion,20 µg/mL
CCCCCOc1ccc(-c2ccc(-c3ccc(C(=O)N[C@H]4CCCNC(=O)C5C[C@H](NC(=O)NCCC(C)C)CN5C(=O)C(C(C)O)NC(=O)C(CCc5ccc(O)cc5)NC(=O)C5C[C@@H](O)CN5C(=O)C(C(C)O)NC4=O)cc3)cc2)cc1,,ATCC 10231,,12.5 µg/mL
O=C(c1ccc(Cl)cc1)c1oc2ccccc2c1Cn1cncn1,,NRRL Y-27077,,25 µg/mL
C[C@@H](c1ncncc1F)[C@](O)(Cn1cncn1)c1ccc(F)cc1F,pH 4,15 isolates,broth dilution,0.03 µg/mL
Cc1c(O)cccc1C(=O)N[C@@H](CSc1ccccc1)[C@H](O)CN1C[C@H]2CCCC[C@H]2C[C@H]1C(=O)NC(C)(C)C,,I44B,,>64 µg/mL
C[C@H](n1cnc2cc(C(F)(F)F)ccc2c1=O)[C@](O)(Cn1cncn1)c1ccc(F)cc1F,,76 strains,,5 µg/mL
Cc1nn(-c2ccc(S(=O)(=O)NC(=S)Nc3ccc(Cl)cc3)cc2)c(=O)c2c(C)noc12,,ATCC 10231,broth dilution,25 µg/mL
CCC(C)CC(C)CCCCCCCCC(=O)N[C@H]1C[C@@H](O)[C@H](NCCN)NC(=O)[C@@H]2[C@@H](O)CCN2C(=O)[C@H]([C@H](O)CCN)NC(=O)[C@H]([C@H](O)[C@@H](O)c2ccc(O)cc2)NC(=O)[C@@H]2C[C@@H](O)CN2C(=O)[C@H]([C@@H](C)O)NC1=O,,CLY16997,broth dilution,>16 µg/mL
CCC(C)n1ncn(-c2ccc(N3CCN(c4ccc(OC[C@H]5CO[C@](Cn6cncn6)(c6ccc(Cl)cc6Cl)O5)cc4)CC3)cc2)c1=O,,60 strains,,0.07 µg/mL
O=C1/C(=C/c2ccc3ccccc3c2)CSc2ccc(Cl)cc21,,,,50 µg/mL
COc1ccc2c(C)c(/C(=N/O)c3ccccc3)oc2c1,,NRRL Y-27077,,12.5 µg/mL
Cc1ccc(/C=C2\CCc3ccccc3C2=O)cc1,,,,50 µg/mL
CCCCCCCCC(=O)[C@H]1O[C@H]1C(=O)NCc1ccccc1,,F2 sensitive,,6.25 µg/mL
Nn1c(SCC(O)(Cn2cncn2)c2ccc(Cl)cc2Cl)nnc1-c1ccc(F)cc1,,PTCC 6027,broth dilution,>64 µg/mL
CCC(C)CC(C)CCCCCCCCC(=O)N[C@H]1C[C@@H](O)[C@H](NCCN)NC(=O)[C@@H]2[C@@H](O)CCN2C(=O)[C@H]([C@H](O)CCN)NC(=O)[C@H]([C@H](O)[C@@H](O)c2ccc(O)cc2)NC(=O)[C@@H]2C[C@@H](O)CN2C(=O)[C@H]([C@@H](C)O)NC1=O,pH 6,15 isolates,broth dilution,0.06 µg/mL
Cc1nn(C(=O)C(F)(F)F)c(=O)c2c(C)noc12,,ATCC 10231,broth dilution,≥200 µg/mL
Fc1ccc(/C(Cn2ccnc2)=N/OCc2ccccc2)cc1,,3M,,64 µg/mL
N#Cc1ccc(-c2c[nH]cc2C(c2ccc(Cl)cc2Cl)n2ccnc2)cc1,,,,4.3 µg/mL
Nc1[nH]c(=O)ncc1F,pH 4,15 isolates,broth dilution,0.125 µg/mL
Cc1ccc2ncn([C@H](C)[C@](O)(Cn3cncn3)c3ccc(F)cc3F)c(=O)c2c1,,76 strains,,10 µg/mL
Clc1ccc(/C(Cn2ccnc2)=N/OCc2ccccc2)cc1,,Y0109,,32 µg/mL
Clc1ccc(C(Cn2ccnc2)OCc2ccc(-c3ccccc3)cc2)cc1,,CA7,,128 µg/mL
CCCCCOc1ccc(-c2ccc(-c3ccc(C(=O)N[C@H]4CCCNC(=O)[C@@H]5C[C@H](NC(=O)c6ccccc6)CN5C(=O)[C@H]([C@@H](C)O)NC(=O)[C@H](CCc5ccc(O)cc5)NC(=O)[C@@H]5C[C@@H](O)CN5C(=O)[C@H]([C@@H](C)O)NC4=O)cc3)cc2)cc1,,ATCC CCH442,,6.25 µg/mL
Clc1ccc(/C(Cn2ccnc2)=N/OCc2ccccc2)c(Cl)c1,,Y0109,,32 µg/mL
COc1ccc(-c2ccc(C(=O)N[C@H]3CCCNC(=O)C4C[C@H](N)CN4C(=O)C(C(C)O)NC(=O)C(CCc4ccc(O)cc4)NC(=O)C4C[C@@H](O)CN4C(=O)C(C(C)O)NC3=O)cc2)cc1,,ATCC CCH442,,6.25 µg/mL
Cc1nn(-c2ccc(S(=O)(=O)/N=C3\SC(=O)C(=O)N3c3ccc(F)cc3)cc2)c(=O)c2c(C)noc12,,ATCC 10231,broth dilution,≥200 µg/mL
Cc1ccc(-c2nnc(SCC(O)(Cn3cncn3)c3ccc(Cl)cc3Cl)n2N)cc1,,ATCC 18804,broth dilution,>64 µg/mL
CCCCCCCCC(=O)[C@H]1O[C@H]1C(=O)N(CC)CC,,G2-sensitive,,3.125 µg/mL
CO[C@@H]1C[C@H](C[C@@H](C)[C@@H]2CC(=O)[C@H](C)/C=C(\C)[C@@H](O)[C@@H](OC)C(=O)[C@H](C)C[C@H](C)/C=C/C=C/C=C(\C)[C@H](N(O)C(N)=O)C[C@@H]3CC[C@@H](C)[C@@](O)(O3)C(=O)C(=O)N3CCCC[C@H]3C(=O)O2)CC[C@H]1C(=O)ON(C)O,,62376,,100 µg/mL
Nn1c(SCC(O)(Cn2cncn2)c2ccc(Cl)cc2Cl)nnc1-c1ccc(O)cc1,,IRFC 37,broth dilution,64 µg/mL
CCCCCOc1ccc(-c2ccc(C(=O)N[C@H]3CCCNC(=O)C4C[C@H](N)CN4C(=O)C(C(C)O)NC(=O)C(CCc4ccc(O)cc4)NC(=O)C4C[C@@H](O)CN4C(=O)C(C(C)O)NC3=O)cc2)cc1,,ATCC CCH442,,0.2 µg/mL
Cc1nn(-c2ccc(S(=O)(=O)/N=C3\SCC(=O)N3c3ccc(Cl)cc3)cc2)c(=O)c2c(C)noc12,,ATCC 10231,broth dilution,50 µg/mL
Cc1ccc(-c2nnc(SCC(O)(Cn3cncn3)c3ccc(F)cc3F)n2N)cc1,,IRFC 192,broth dilution,>64 µg/mL
O=C1/C(=C/c2ccc3ccccc3c2)CSc2ccccc21,,,,25 µg/mL
Cc1nn(C(=S)Nc2ccccc2)c(=O)c2c(C)noc12,,ATCC 10231,broth dilution,≥200 µg/mL

4 of the rows above, restated:

| compound | conditions | strain or isolate | read by | value |
|---|---|---|---|---|
| Nn1c(SCC(O)(Cn2cncn2)c2ccc(F)cc2F)nnc1-c1ccc(F)cc1 |  | IRFC 37 | broth dilution | >64 µg/mL |
| CO[C@@H]1C[C@H](C[C@@H](C)[C@@H]2CC(=O)[C@H](C)/C=C(\C)[C@@H](O)[C@@H](OC)C(=O)[C@H](C)C[C@H](C)/C=C/C=C/C=C(\C)[C@H](N(O)C(N)=O)C[C@@H]3CC[C@@H](C)[C@@](O)(O3)C(=O)C(=O)N3CCCC[C@H]3C(=O)O2)CC[C@H]1C(=O)ON(C)O |  | 62376 |  | 100 µg/mL |
| O=C1/C(=C/c2ccc3ccccc3c2)CSc2ccc(Cl)cc21 |  |  |  | 50 µg/mL |
| Cc1nn(C(=S)Nc2ccccc2)c(=O)c2c(C)noc12 |  | ATCC 10231 | broth dilution | ≥200 µg/mL |